A mixed list of measured activities; the numbers were collected in NIAID ChemDB.

Common to all: whole-cell or culture tests; species: Coxsackie virus; endpoint: EC50

Rows are shuffled and stem from different studies. a–b is a range or a potency band. An empty or dashed field is not shown. ECn: concentration that inhibits the pathogen or its effect by n%.

compound | strain or isolate | cells | method | value
Cc1cc(-c2noc(C(F)(F)F)n2)cc(C)c1OCCCc1cccnn1 |  | HeLa | cytopathic effect | 0.033–0.659 µg/mL
COc1ccc(-c2snc(SC)c2C#N)cc1 | TYPE B1 | HEP-2 | plaque count | >10 µM
Cc1ccc(C(=O)CCCCOc2ccc(C3=N[C@H](C)CO3)cc2)s1 | TYPE B2 | VERO | cytopathic effect | 2.52 µM
CS(=O)(=O)c1ccc(Oc2ccc(C(=O)c3ccccc3)cc2)nc1 | A-9 | MRC-5 | cytopathic effect | 0.3 µg/mL
CSc1nsc(-c2ccccc2Cl)c1C#N | TYPE B1 | HEP-2 | plaque count | >5 µM
CSc1nsc(-c2ccc(OC(C)(C)C)cc2)c1C#N | TYPE B1 | HEP-2 | plaque count | 10 µM
OC[C@H]1O[C@@H](n2c(CCc3ccccn3)nc3cc(Cl)c(Cl)cc32)[C@H](O)[C@@H]1O | B4 | HEL | cytopathic effect | >100 µg/mL
CSc1nsc(-c2ccc(O)cc2)c1C#N | TYPE B1 | HEP-2 | plaque count | >2 µM
C=C(N=CC)c1nc(-c2cccc(C)c2)n([C@@H]2O[C@H](CO)[C@@H](O)[C@H]2O)n1 | TYPE B4 | HeLa | cytopathic effect | >200 µg/mL
CCCCCCCCCCc1nccn(COCCO)c1=O | TYPE B4 | MRC-5 | cytopathic effect | 100 µM
CC(C)c1ccc2c(c1)c(=O)cc(-c1cccs1)n2C | TYPE A7 | HeLa S3 | cytopathic effect | 1.9 µg/mL
Cc1cc(CCCCCOc2c(Cl)cc(C3=NCCO3)cc2Cl)on1 | B1 | RD-2 | plaque count | 0.03 µg/mL
Nc1ccn([C@@H]2O[C@H](CO)[C@@H](F)[C@H]2O)c(=O)n1 | TYPE B4 | VERO B | cytopathic effect | 300 µg/mL
CSc1nsc(-c2ccc(OCCCOc3ccc(C#N)cc3)cc2)c1C#N | TYPE B1 | HEP-2/L-929/VERO | plaque count | >2 µM
CC=NC(=N)c1nc(-c2ccc(OC)cc2)n(Cc2ccccc2)n1 | TYPE B4 | HeLa | cytopathic effect | >10 µg/mL
Cc1nc(-c2cc(C)c(OCCCc3ccc(C(F)F)nn3)c(C)c2)no1 |  | HeLa | cytopathic effect | 0.033–0.659 µg/mL
Cc1ccc(C(=O)CCCCOc2ccc(C3=N[C@@H](C)CO3)cc2)s1 | TYPE B5 | VERO | cytopathic effect | 22.24 µM
CCn1nnc(-c2ccc(OCCC(C)CCN3CCN(c4ccncc4)C3=O)cc2)n1 | B3 | RD | cytopathic effect | 25 µM
Cc1ccc(C(=O)CCCCCCOc2ccc(C3=N[C@@H](C)CO3)cc2)s1 | TYPE B2 | VERO | cytopathic effect | >25.97 µM
Cc1c(-c2ccccc2)n(C)c2cc(C(C)C)c(OC(C)C)cc2c1=O | TYPE B4/JVB | HeLa S3 | cytopathic effect | >1.6 µg/mL
CSc1nsc(-c2ccc(OCCCCOc3ccc([N+](=O)[O-])cc3)cc2)c1C#N | TYPE B1 | HEP-2/L-929/VERO | plaque count | >0.5 µM
OCCOCn1c(SCc2ccccn2)nc2ccccc21 | B4 | HEL | cytopathic effect | >100 µg/mL
CCCc1ccc(CCCOc2ccc(-c3noc(C4CC4)n3)c(C)c2)nn1 |  | HeLa | cytopathic effect | 0.033–0.659 µg/mL
Nc1ncnc2c1ncn2[C@@H]1O[C@H](CO)[C@@H](F)[C@H]1O | TYPE B4 | VERO B | cytopathic effect | 7 µg/mL
CC(=O)c1ccc(CCCOc2ccc(-c3noc(C(F)F)n3)c(C)c2)nn1 |  | HeLa | cytopathic effect | 0.033–0.659 µg/mL
OC[C@H]1O[C@@H](n2c(SCc3ccccn3)nc3cc(Cl)c(Cl)cc32)[C@H](O)[C@@H]1O | B4 | HEL | cytopathic effect | >50 µg/mL
Nc1nc2c(ncn2[C@@H]2O[C@H](CO)[C@@H](F)[C@H]2O)c(=O)[nH]1 | TYPE B4 | VERO B | cytopathic effect | 40 µg/mL
Cc1ccc(-n2c(-c3ccccc3)c(C)c(=O)c3cc(C(C)C)ccc32)cc1 | TYPE A7 | HeLa S3 | cytopathic effect | >2.5 µg/mL
Cc1ccc(C(=O)CCCCOc2ccc(C3=NC(C)CO3)cc2)s1 | TYPE B2 | VERO | cytopathic effect | 3.08 µM
CCS(=O)(=O)c1ccc(Oc2ccc(C(=O)c3ccccc3)cc2)nc1 | TYPE A21 | HeLa | cytopathic effect | 1.3 µg/mL
N#Cc1c(Cl)nsc1Cl | TYPE B1 | HEP-2 | plaque count | >4 µM
CCn1c(-c2cccc(F)c2)c(C)c(=O)c2cc(C(C)C)ccc21 | TYPE B4/JVB | HeLa S3 | cytopathic effect | >4 µg/mL
CSc1nsc(-c2ccccn2)c1C#N | TYPE B1 | HEP-2 | plaque count | >50 µM
Cc1cc(OCCCc2ccc(Cl)nn2)cc(C)c1-c1noc(C(F)(F)F)n1 |  | HeLa | cytopathic effect | 0.033–0.659 µg/mL
CCOC(=O)c1ccc(OCCOc2ccc(-c3snc(SC)c3C#N)cc2)cc1 | TYPE B1 | HEP-2/L-929/VERO | plaque count | >2 µM
N#Cc1c(-c2ccccc2)nsc1Cl | TYPE B1 | HEP-2 | plaque count | >20 µM
COc1ccc(-n2c(-c3ccccc3)c(C)c(=O)c3cc(C(C)C)ccc32)cc1 | TYPE B4/JVB | HeLa S3 | cytopathic effect | >2.5 µg/mL
CSc1nsc(-c2cc[n+](C)cc2)c1C#N | TYPE B1 | HEP-2 | plaque count | >1000 µM
CC=NC(=N)c1nc(-c2cccc(OC)c2)n(C/C=C/c2ccccc2)n1 | TYPE B4 | HeLa | cytopathic effect | >10 µg/mL
Cc1c(-c2ccccc2)n(-c2ccc(F)cc2)c2ccc(C(C)C)cc2c1=O | TYPE A7 | HeLa S3 | cytopathic effect | >2 µg/mL
CC=NC(=N)c1nc(-c2ccccc2)n(Cc2ccccc2)n1 | TYPE B4 | HeLa | cytopathic effect | >10 µg/mL
CSc1nsc(-c2ccc(OCc3ccccc3)cc2)c1C#N | TYPE B1 | HEP-2/L-929/VERO | plaque count | 10 µM
C=C[C@@](C)(CO)CCn1cnc2c(N)ncnc21 | TYPE B3 |  |  | 53.49 µg/mL
Cc1ccc(C(=O)CCCCCCOc2ccc(C3=N[C@H](C)CO3)cc2)s1 | TYPE B5 | VERO | cytopathic effect | >25.97 µM
CSc1nsc(-c2cccs2)c1C#N | TYPE B1 | HEP-2 | plaque count | >6 µM
Cc1ccc(CCCOc2c(C)cc(C#N)cc2C)o1 |  | HeLa | cytopathic effect | 0.033–0.659 µg/mL
OCCOCn1c(CCc2ccccn2)nc2ccccc21 | B4 | HEL | cytopathic effect | >100 µg/mL

6 of the rows above, restated:

compound,strain or isolate,cells,method,value
CCS(=O)(=O)c1ccc(Oc2ccc(C(=O)c3ccccc3)cc2)nc1,TYPE A21,HeLa,cytopathic effect,1.3 µg/mL
CSc1nsc(-c2cc[n+](C)cc2)c1C#N,TYPE B1,HEP-2,plaque count,>1000 µM
Cc1ccc(C(=O)CCCCOc2ccc(C3=N[C@H](C)CO3)cc2)s1,TYPE B2,VERO,cytopathic effect,2.52 µM
Nc1ncnc2c1ncn2[C@@H]1O[C@H](CO)[C@@H](F)[C@H]1O,TYPE B4,VERO B,cytopathic effect,7 µg/mL
CC=NC(=N)c1nc(-c2cccc(OC)c2)n(C/C=C/c2ccccc2)n1,TYPE B4,HeLa,cytopathic effect,>10 µg/mL
CSc1nsc(-c2ccc(OCCCOc3ccc(C#N)cc3)cc2)c1C#N,TYPE B1,HEP-2/L-929/VERO,plaque count,>2 µM